Results reported in BindingDB's records for 16597152.

Amino acid sequences for entries named in this document (tags omitted). Residues count along the entry.
UniProt Q45894, 1-425: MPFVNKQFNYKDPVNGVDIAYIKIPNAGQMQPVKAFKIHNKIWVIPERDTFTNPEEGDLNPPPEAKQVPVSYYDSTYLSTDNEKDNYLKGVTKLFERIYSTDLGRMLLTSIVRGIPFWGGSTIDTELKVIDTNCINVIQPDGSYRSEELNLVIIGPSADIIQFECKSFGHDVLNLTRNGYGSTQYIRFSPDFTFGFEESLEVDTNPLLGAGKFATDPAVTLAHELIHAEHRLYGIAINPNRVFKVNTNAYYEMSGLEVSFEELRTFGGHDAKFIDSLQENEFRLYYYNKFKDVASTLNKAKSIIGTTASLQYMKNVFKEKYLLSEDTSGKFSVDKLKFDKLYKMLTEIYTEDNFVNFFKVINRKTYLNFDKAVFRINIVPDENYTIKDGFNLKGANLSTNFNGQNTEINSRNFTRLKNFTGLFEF

Molecular target: Botulinum neurotoxin type A2 [1-425] (Clostridium botulinum, UniProt Q45894)
Details: pH 7.4

SMILES | IC50 [µM]
O=C(/C=C/c1ccc(F)cc1)NO | 54
O=C(/C=C/c1ccc(Br)cc1)NO | 40
O=C(CCc1ccc(Cl)cc1Cl)NO | 3.1
O=C(/C=C/c1ccc([N+](=O)[O-])cc1)NO | 72
CC(C)(C)c1ccc(/C=C/C(=O)NO)cc1 | > 100
COc1ccc(/C=C/C(=O)NO)cc1 | 79
O=C(/C=C(\F)c1ccccc1)NO | > 100
O=C(C#Cc1ccc(Cl)cc1Cl)NO | 73
N#Cc1ccc(/C=C/C(=O)NO)cc1 | 61
O=C(/C=C/c1ccc(Cl)c(Cl)c1)NO | 75
Cc1ccc(/C=C/C(=O)NO)cc1 | 87
